Results taken from article PMC10531167.
Construct, isoform or probe ends are uncertain for at least one entry. At least one verdict rests on a figure or table, not on a statement of the authors.

Tested on: Purα (in vitro translated, 35S, RNase-treated) + GST-Tat
Assay: GST pull-down (RNA reconstitution of protein complex)
Details: RNA-bridged complex, indirect read-out, protein details: N-terminal GST

Question: Does “CCCGGCCGGU [oligo-srRNA consensus GC-rich 10-mer]” bind?
Answer: binds
